# HIV-1 NL4-3 point mutations in RT: replication capacity

Protein: RT of HIV-1 NL4-3, numbered from its first residue.
Effects on overlapping genes or RNA elements are not listed.

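Seven fragments of pNL4-3 were mutated by error-prone PCR, and each virus pool was passaged in CEM T cells. Sequencing gave the RC index: frequency after two rounds over frequency in the input plasmid.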

RC index: lower means poorer replication; rough cut-offs are 0.1 (lethal) and 0.2 (tolerated).
A change reads original residue, position, new residue.
Input reads are the counts in the plasmid library.

mutation,base,input reads,replication capacity index
P1R,C2551G,53,0.0462
I2T,T2554C,357,0.0549
S3I,G2557T,160,0.0612
V10E,T2578A,166,0.0385
K11E,A2580G,157,0.0950
G18V,G2602T,106,0.0804
P19S,C2604T,315,0.101
K20R,A2608G,367,0.0348
V21A,T2611C,292,0.0657
T27R,C2629G,231,0.0369
K30R,A2638G,187,0.0684
I31V,A2640G,93,0.0688
E40G,A2668G,172,0.0991
M41L,A2670C,176,0.0484
I47V,A2688G,199,0.0775
I47T,T2689C,320,0.0361
N54D,A2709G,507,0.0342
N54I,A2710T,462,0.0209
V60I,G2727A,538,0.0665
F61I,T2730A,91,0.0561
A62P,G2733C,72,0.166
K70R,A2758G,238,0.0143
W71S,G2761C,30,0.170
W71C,G2762T,107,0.159
K73E,A2766G,203,0.0336
K73R,A2767G,92,0.0555
F77L,T2778C,258,0.0396
L80V,C2787G,45,0.189
K82R,A2794G,169,0.0202
K82N,G2795T,206,0.0496
Q85H,A2804T,409,0.0250
V90I,G2817A,264,0.0968
L92I,T2823A,211,0.0323
P97H,C2839A,269,0.0619
K103R,A2857G,155,0.0537
S105P,T2862C,166,0.0251
A114T,G2889A,369,0.178
R125K,G2923A,174,0.0419
R125S,G2924T,83,0.113
T128N,C2932A,218,0.0477
A129E,C2935A,142,0.0440
F130L,T2937C,157,0.0265
I135L,A2952T,283,0.0221
I135T,T2953C,204,0.0255
N137I,A2959T,287,0.0181
G141V,G2971T,170,0.152
Y146C,A2986G,223,0.0928
G152V,G3004T,139,0.112
W153G,T3006G,72,0.0479
I159M,A3026G,172,0.0802
F160S,T3028C,435,0.0555
T165P,A3042C,121,0.0570
L168F,A3053T,379,0.0273
P170L,C3058T,115,0.390
V179A,T3085C,80,0.172
D185Y,G3102T,177,0.0849
D186V,A3106T,337,0.0502
D192N,G3123A,408,0.857
I195L,A3132T,296,0.0635
Q197L,A3139T,308,0.0305
E204K,G3159A,213,0.679
L205Q,T3163A,508,0.0259
T216S,A3195T,399,0.0424
K219R,A3205G,220,0.0342
K220R,A3208G,200,0.0940
F227L,C3230A,187,0.161
W229L,G3235T,186,0.192
Y232H,T3243C,191,0.0519
L234H,T3250A,337,0.00420
K238R,A3262G,252,0.0112
T240I,C3268T,309,0.101
V245M,G3282A,202,0.0490
S251C,A3300T,127,0.0111
V254L,G3309C,44,0.0643
N255D,A3312G,283,0.0800
V261M,G3330A,265,0.150
V261L,G3330T,91,0.0311
I270M,T3359G,92,0.0489
C280R,T3387C,189,0.0168
L283F,C3396T,76,0.251
K287N,A3410T,200,0.0635
V292A,T3424C,224,0.0142
T296P,A3435C,72,0.0661
S322T,T3513A,240,0.0323
L325S,T3523C,149,0.117
I326L,A3525T,277,0.0350
I329K,T3535A,221,0.0701
K331N,G3542T,174,0.0557
W337R,T3558A,277,0.0490
I341M,T3572G,103,0.0564
F346L,T3587A,349,0.0333
N363Y,A3636T,255,0.0456
E370V,A3658T,172,0.123
K374T,A3670C,146,0.0182
K374I,A3670T,427,0.0808
W383C,G3698C,53,0.150
K385M,A3703T,293,0.0634
E396K,G3735A,105,1.01
W401R,T3750C,301,0.0705
T403I,C3757T,260,0.163
W406C,G3767T,144,0.111
Q407H,A3770C,126,0.0421
W410G,T3777G,39,0.204
I411S,T3781G,76,0.105
E413V,A3787T,504,0.0527
E415V,A3793T,162,0.0338
K424E,A3819G,290,0.0189
W426R,T3825C,137,0.0400
I434L,A3849T,202,0.0542
G436R,G3855A,109,0.837
T439S,A3864T,88,0.166
D443G,A3877G,205,0.0267
A445S,G3882T,80,0.0456
V458L,G3921C,49,0.0372
K465T,A3943C,127,0.0150
V467I,G3948A,167,0.364
P468H,C3952A,163,0.163
T470A,A3957G,275,0.0553
Q475L,A3973T,274,0.0277
Q480R,A3988G,332,0.132
Q480L,A3988T,233,0.0571
A481T,G3990A,223,0.0767
Y501H,T4050C,87,0.0874
E514V,A4090T,409,0.0401
S515T,T4092A,403,0.0244
I522T,T4114C,240,0.0546
W535R,T4152C,262,0.0438
W535C,G4154T,443,0.0592
G543E,G4177A,206,0.454
D549Y,G4194T,196,0.117

Excerpt, the final 16 entries:

| mutation | base | input reads | replication capacity index |
|---|---|---|---|
| K465T | A3943C | 127 | 0.0150 |
| V467I | G3948A | 167 | 0.364 |
| P468H | C3952A | 163 | 0.163 |
| T470A | A3957G | 275 | 0.0553 |
| Q475L | A3973T | 274 | 0.0277 |
| Q480R | A3988G | 332 | 0.132 |
| Q480L | A3988T | 233 | 0.0571 |
| A481T | G3990A | 223 | 0.0767 |
| Y501H | T4050C | 87 | 0.0874 |
| E514V | A4090T | 409 | 0.0401 |
| S515T | T4092A | 403 | 0.0244 |
| I522T | T4114C | 240 | 0.0546 |
| W535R | T4152C | 262 | 0.0438 |
| W535C | G4154T | 443 | 0.0592 |
| G543E | G4177A | 206 | 0.454 |
| D549Y | G4194T | 196 | 0.117 |

Since each clone held several changes (about five per kb), neutral changes can read low.
Nucleotide positions follow pNL4-3.
An index over 1, which the authors read as above wild type, was rare (1.9% of all changes in the genome).

Source: Al-Mawsawi et al. 2014 (doi:10.1186/s12977-014-0124-6), supplementary data.